In PubChem BioAssay AID485395 (ICCB-Longwood Screening Facility, Harvard Medical School, 2010):
This is a selection; strong and weak results do not stand in their true shares. The source made the active and inactive calls. No stated cut-off is given here; in the data, active means inhibition above about 25% (passing the limit was not always enough); inactive means the rest.

These compounds were tested on replicative DNA helicase (DnaC/DnaB), Staphylococcus aureus (assay: S. aureus DnaC helicase unwinding inhibition – biochemical, fluorescence unwinding readout, primary screen (AID 485395;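 further: 0% = mean of negative control wells and 100% = mean of positive control wells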)). Conditions: purified S. aureus helicase, fluorescence unwinding assay; hits give high values; concentration not given here.
For `O=C(OC1CN2CCC1CC2)C12CC3CC(CC(C3)C1)C2` (stereo unspecified), the inhibition was inactive: 3%. With `O=P1(Nc2nccs2)CC=CC1` the inhibition was inactive: -6%. With `CN(C)P1(=O)Nc2ccccc2S1` (stereo unspecified) the inhibition was inactive: 15%. In the case of `COP1(=S)N=C2c3ccccc3CN2c2cc(N(C)C)ccc21` (stereo unspecified), the inhibition is reported as inactive: 7%. With `Nc1nonc1OCCOc1nonc1N` the inhibition was inactive: 2%. `Cc1cc(C)cc(OP(C)(=O)NCc2ccccc2)c1` (stereo unspecified) was tested, and the inhibition was inactive: 3%. With `O=C(O)C1(O)c2ccccc2-c2ccccc21` the inhibition was inactive: 12%. In the case of `CC1=Nc2ccc(C(F)(F)F)cc2C1(C)C`, the inhibition is reported as inactive: -11%. With `CCOP1(=S)c2c(C)nn(CCC#N)c2N=C(c2ccc(F)cc2)N1C` (stereo unspecified) the inhibition was inactive: 7%. In the case of `O=P1(Nc2nc3ccc(Cl)cc3s2)COc2ccccc2OC1`, the inhibition is reported as inactive: 25%. With `NC(=O)COC(=O)C1(O)c2ccccc2-c2ccccc21` the inhibition was inactive: 4%. In the case of `COc1cc(-n2cnnn2)ccc1-n1cnnn1`, the inhibition is reported as inactive: 10%. For `Cc1cccc(OCC(=O)OC2CN3CCC2CC3)c1` (stereo unspecified), the inhibition was inactive: 11%. With `Nc1nonc1-c1no[n+]([O-])c1-c1nonc1N` the inhibition was inactive: 15%. In the case of `O=P1(Nc2ccccn2)COc2ccccc2OC1`, the inhibition is reported as inactive: 8%. For `CC1(C)COP(=S)(N(C2=NCCC2)c2ccccc2)OC1`, the inhibition was inactive: 19%. `CCSP(=O)(c1ccccc1)c1ccccc1` was tested, and the inhibition was inactive: -11%. For `Cc1cc(C)cc(OP(C)(=O)Nc2ccc(OC(C)C)cc2)c1` (stereo unspecified), the inhibition was inactive: 6%. For `CP(=O)(N1CCOCC1)N1CCOCC1`, the inhibition was inactive: -5%. `Cc1nn(CCC#N)c2c1P(=O)(Nc1ccccc1Cl)N(C)C(c1ccc(F)cc1)=N2` (stereo unspecified) was tested, and the inhibition was inactive: -5%. With `Cc1nn(-c2ccccc2)c2c1P(=O)(N1CCOCC1)N(C)C(c1ccccc1)=N2` (stereo unspecified) the inhibition was inactive: 7%.
